Where a protein sequence is shown, tags need not be part of it.
Legend:
[1] = target: T1, Tn5 transposase hyperactive mutant (EK54, MA56, LP372) E54K,M56A,L372P (UniProt Q46731); assay: EMSA; details: binding and strand cleavage; 10 mM MgAc, 37 C; EDTA inhibits cleavage; purified recombinant protein; label: fluorescein 5' ends
T1 sequence (looked up, limits assumed): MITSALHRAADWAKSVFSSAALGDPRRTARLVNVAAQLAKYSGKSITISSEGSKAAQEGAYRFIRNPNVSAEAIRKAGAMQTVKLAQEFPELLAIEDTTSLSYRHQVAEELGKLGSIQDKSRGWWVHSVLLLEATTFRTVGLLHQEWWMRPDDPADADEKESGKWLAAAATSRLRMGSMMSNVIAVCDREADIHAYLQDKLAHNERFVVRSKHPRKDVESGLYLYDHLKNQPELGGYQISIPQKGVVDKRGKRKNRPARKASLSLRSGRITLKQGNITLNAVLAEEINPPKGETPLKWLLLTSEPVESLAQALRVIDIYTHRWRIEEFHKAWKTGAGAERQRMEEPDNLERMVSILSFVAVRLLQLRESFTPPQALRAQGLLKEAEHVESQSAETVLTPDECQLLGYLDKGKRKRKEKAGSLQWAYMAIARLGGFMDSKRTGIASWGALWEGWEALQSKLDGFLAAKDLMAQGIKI

[2] = target: T1, Tn5 transposase hyperactive mutant (EK54, MA56, LP372) E54K,M56A,L372P; assay: FP; details: binding and strand cleavage; 10 mM MgAc, 37 C; cleavage inhibited by EDTA while complex retained; purified recombinant protein; label: rhodamine green 5' end of non-transferred strand

Sequence	activity on this sequence [1]	activity on this sequence [2]
GGCCACGACACGCTCCCGCGCTGTCTCTTATACACATCTTGAGTGAGTGAGCATGCATGT (double strand) [60 bp Tn5 substrate (20 bp donor + 40 bp transposon)]	active	
TGCAGGTCGACTGTCTCTTATACACATCTTGAGTGAGTGAGCATGCATGT (double strand) [50 bp Tn5 substrate (10 bp donor + 40 bp transposon)]		active

From US20060035245, “Modulators of enzymatic nucleic acid elements mobilization” (published 2006)
